A mixed list of measured activities; the numbers were collected in NIAID ChemDB.

Shared fields: growth or infection tests; species: HIV-1; method: β-galactosidase; measure: EC50

ECn: concentration that inhibits the pathogen or its effect by n%. An empty or dashed field is not shown. Neighbouring rows are from separate reports.

smiles | strain or isolate | cells | conditions | mutations | value
Cc1cc(Cl)cc(S(=O)(=O)c2cccc(N)c2C#N)c1 |  | HeLa + HELA CD4+ |  | RT-V108I Y181C | 18 µM
Cc1ccc(-c2ccc3c(c2)C=C(C(=O)Nc2ccc(CC[N+]4(C)CCCCC4)cc2)CCO3)cc1 | JR-FL | MAGI + MAGI-CCR5 |  |  | 0.056 µM
COc1cc(C(F)(F)F)cc(S(=O)(=O)c2cccc(N)c2C#N)c1 |  | HeLa + HELA CD4+ |  | RT-V106A Y181C | 0.42 µM
O=C(O)/C=C/c1ccc[c]([Sb](=[O])([OH])[OH])c1 | 93IN101 R5 clinical isolate | MAGI |  |  | <10 µM
c1ccc(CNc2nc(-c3cccnc3)cs2)cc1 | NL4-3 | HeLa CD4 |  | WT | 0.801 µM
Cc1cn([C@H]2C[C@H](N=[N+]=[N-])[C@@H](CO)O2)c(=O)[nH]c1=O | A018A | MAGI + MAGI-CCR5 |  |  | 0.0506 µM
Cc1cc(Br)cc(S(=O)(=O)c2cccc(N)c2C#N)c1 |  | HeLa + HELA CD4+ |  | RT-P236L | 0.005 µM
CCn1nc(Cc2cc(C(F)(F)F)cc(C(F)(F)F)c2)cc1C1CCN(C[C@H]2CN([C@@H](C(=O)O)C(C)C)C[C@@H]2c2cccc(F)c2)CC1 | BaL | HeLa |  |  | <0.1 µM
COc1ccc(NC(=O)CSc2nnnn2-c2c(C)cc(C)cc2C)cc1Cl | NL4.3-XCS | HeLa CD4 |  | 41-215 (AZT-resistant) | 0.331 µM
CCn1nc(Cc2ccc(O)cc2)cc1C1CCN(C[C@H]2CN([C@@H](C(=O)O)C(C)(C)C)C[C@@H]2c2cccc(F)c2)CC1 | BaL | HeLa |  |  | <0.0004 µM
CCC(CC)[N+](C)(C)Cc1ccc(NC(=O)C2=Cc3cc(-c4ccc(C)cc4)ccc3OCC2)cc1 | JR-FL | MAGI + MAGI-CCR5 |  |  | 0.0051 µM
C#C[C@]1(CO)O[C@@H](n2cc(I)c(=O)[nH]c2=O)C[C@@H]1O | HXB2 | HeLa |  |  | 0.37 µM
CCn1nc(Cc2ccc(S(C)(=O)=O)cc2)cc1C1CCN(C[C@H]2CN([C@@H](C(=O)O)C3CCCCC3)C[C@@H]2c2cccc(F)c2)CC1 | BaL | HeLa |  |  | <0.0004 µM
Cc1nc2ccccc2n1S(=O)(=O)c1cc(Br)ccc1Br | NL4.3-XCS | HeLa CD4 |  | M184V (3TC-resistant) | 0.631 µM
CCn1nc(Cc2ccc(S(=O)(=O)c3ccccc3)cc2)cc1C1CCN(C[C@H]2CN([C@@H](C(=O)O)C3CCCCC3)C[C@@H]2c2cccc(F)c2)CC1 | BaL | HeLa | 50% human serum |  | <0.033 µM
C#C[C@]1(CO)O[C@@H](n2cc(C)c(=O)[nH]c2=O)C[C@@H]1O |  | HeLa |  | RT-L74V | 0.68 µM
C#C[C@@]1(CO)C=C[C@H](n2cc(C)c(=O)[nH]c2=O)O1 | HXB2 | MAGI (CCR5) + MAGI |  | RT-K103N | 0.46 µM
O=c1[nH]cnc2c1ncn2[C@H]1CC[C@@H](CO)O1 | RT-M41L T69SSG T215Y | HeLa |  | RT M41L T69SSG insertion T215Y | 12.2 µM
Cc1ccc(-c2ccc3c(c2)C=C(C(=O)Nc2ccc(C[N+](C)(C)C4CCOCC4)cc2)CCC3)cc1 | JR-FL | MAGI + MAGI-CCR5 |  |  | 0.0012 µM
CCn1nc(Cc2cccc(F)c2)cc1C1CCN(C[C@H]2CN([C@@H](C(=O)O)C3CCCCC3)C[C@@H]2c2cccc(F)c2)CC1 | BaL | HeLa | 50% human serum |  | <0.033 µM
Cc1ccnc2c1NC(=O)c1cccnc1N2C1CC1 | NL4-3 | MAGI (CCR5) + MAGI |  | RT-K103N M184V | 2.3 µM
CCn1nc(Cc2cccc(C#N)c2)cc1C1CCN(C[C@H]2CN([C@@H](C(=O)O)C(C)C)C[C@@H]2c2cccc(F)c2)CC1 | BaL | HeLa | 50% human serum |  | <0.1 µM
Cc1ccc(-c2ccc3c(c2)C=C(C(=O)Nc2ccc(C[N+]4(C)CCCCC4)cc2)CCO3)cc1 | JR-FL | MAGI + MAGI-CCR5 |  |  | 0.045 µM
N#CC1C=Cc2ccccc2C1C(=O)/C=C/c1ccccc1 | NL4-3 | HeLa CD4 |  | WT | 0.172 µM
Cc1ccnc2c1NC(=O)c1cccnc1N2C1CC1 | NNRTI-resistant (RT K103N V108I) | MAGI |  | RT-K103N V108I | 23 µM
Cc1cc(O)cc(S(=O)(=O)c2cccc(N)c2C#N)c1 |  | HeLa + HELA CD4+ |  | RT-G190A | 0.66 µM
Nc1ccn([C@H]2C[C@H](O)[C@](CO)(CF)O2)c(=O)n1 | HXB2 | HeLa |  |  | 0.0046 µM

For reference, 4 entries again:

smiles | strain or isolate | cells | conditions | mutations | value
CCC(CC)[N+](C)(C)Cc1ccc(NC(=O)C2=Cc3cc(-c4ccc(C)cc4)ccc3OCC2)cc1 | JR-FL | MAGI + MAGI-CCR5 |  |  | 0.0051 µM
Cc1ccnc2c1NC(=O)c1cccnc1N2C1CC1 | NNRTI-resistant (RT K103N V108I) | MAGI |  | RT-K103N V108I | 23 µM
CCn1nc(Cc2cc(C(F)(F)F)cc(C(F)(F)F)c2)cc1C1CCN(C[C@H]2CN([C@@H](C(=O)O)C(C)C)C[C@@H]2c2cccc(F)c2)CC1 | BaL | HeLa |  |  | <0.1 µM
Cc1ccc(-c2ccc3c(c2)C=C(C(=O)Nc2ccc(CC[N+]4(C)CCCCC4)cc2)CCO3)cc1 | JR-FL | MAGI + MAGI-CCR5 |  |  | 0.056 µM